Pooled drug test results. Numbers come from NIAID ChemDB, via PubChem.

Shared fields: growth or infection tests; agent: HIV-1; read by: MTT; read-out: EC50

ECn: concentration that inhibits the pathogen or its effect by n%. Lines come from different laboratories, so protocols vary. Blank or dashed fields: not listed here.

| smiles | cell line | changes | strain | value |
|---|---|---|---|---|
| Cc1c(Cc2c(F)cccc2F)nc(SCc2ccc3c(c2)OCO3)[nH]c1=O | MT-4 | - | NL4-3 | 0.15 µM |
| N#Cc1ccc(NC2=NS(=O)(=O)NC(Cc3cccc4ccccc34)=C2)cc1 | MT-4 | - | IIIB | >250 µM |
| CC(C)=CCc1cc([C@@H]2CC(=O)c3c(O)cc(O)cc3O2)c(CC=C(C)C)c(O)c1O | MT-4 | - | IIIB | >100 µg/mL |
| CN(CCO)c1ccc(-c2nc3ccccc3c(=O)[nH]2)cc1 | MT-4 | - | - | >42.2 µM |
| Cc1cc(C)cc(S(=O)(=O)c2c(C(=O)NC(C)C(N)=O)[nH]c3ccc(Cl)cc23)c1 | MT-4 | - | IIIB | 0.0016 µM |
| COc1ccc(S(=O)(=O)N(CC(C)C)C[C@@H](O)[C@H](Cc2ccc(F)cc2)NC(=O)O[C@H]2CCO[C@H]3OCC[C@H]32)cc1 | MT-2 | - | LAI | 0.0009 µM |
| Cc1ccc(NC2=NS(=O)(=O)NC(Cc3ccc4ccccc4c3)=C2)cc1C | MT-4 | - | IIIB | >147 µM |
| Nc1ncnc2c1ncn2[C@@H]1OC[C@@](/C=C/P(=O)(O)O)(CO)[C@@H]1F | PBMC | - | LAI | 56.6 µM |
| CC(C)=CCc1c(O)cc2occ(-c3ccc(O)cc3)c(=O)c2c1O | MT-4 | - | IIIB | >20 µg/mL |
| Cc1ccnc2c1NC(=O)c1cccnc1N2C1CC1 | MT-4 | - | NL4-3 | 0.052 µM |
| NC(N)=NCCCNc1ccc2[nH]ccc2c1.O=S(O)O | MT-4 | - | IIIB | >38.03 µM |
| Cc1cccc(C)c1Oc1ccnc(Nc2ccc(C#N)cc2)n1 | MT-4 | Y188L | IIIB | 0.318 µM |
| O=S1(=O)N=C(Nc2ccc(F)c(F)c2F)C=C(Cc2ccc3ccccc3c2)N1 | MT-4 | - | IIIB | >143 µM |
| Nc1ncc(CN(CCN2CCCCC2)CC2CCCN(C3CCCC3)C2)cn1 | MT-4 | - | NL4-3 | 2.6 µM |
| O=S1(=O)N=C(Nc2ccccc2)C=C(Cc2cccc3ccccc23)N1 | MT-4 | - | IIIB | >158 µM |
| Nc1nc(-c2ccc(Br)cc2Br)c(SCC(=O)Nc2ccccc2Br)s1 | MT-4 | - | IIIB | >33.18 µM |
| CCc1c(Cc2c(F)cccc2F)nc(SCc2ccc(C#N)cc2)[nH]c1=O | MT-4 | - | NL4-3 | 0.075 µM |
| c1cc(CNCCCN2CCOCC2)ccc1CCNCCCN1CCOCC1 | MT-4 | - | - | 61.79 µM |
| Cn1c(CN(CCN2CCCCC2)CC2CCCN(C3CCCC3)C2)nc2ccccc21 | MT-4 | - | NL4-3 | 0.6 µM |
| CC(C)=CCc1cc(C2CC(=O)c3c(O)cc(O)c(CC=C(C)C)c3O2)cc(O)c1O | MT-4 | - | IIIB | >100 µg/mL |
| C#Cc1ccc(Nc2nccc(Oc3c(C)cc(-c4cn(Cc5ccc(C(N)=O)cc5)nn4)cc3C)n2)cc1 | MT-4 | F227L and V106A | IIIB | >13.84 µM |
| Cc1cc(C#N)cc(C)c1Oc1nc(Nc2ccc(C#N)cc2)nc(N)c1Br | MT-4 | L100I | IIIB | 0.0049 µM |
| C1CNCCNCC(C2CNCCNCCCNCCNC2)CNCCNC1 | MT-4 | - | IIIB | 0.3 µg/mL |
| CC(C)=CCc1c(O)cc(O)c2c1O[C@H](c1ccccc1)CC2=O | MT-4 | - | IIIB | >100 µg/mL |
| O=S1(=O)N=C(Nc2ccc(Cl)cc2)C=C(Cc2ccccc2)N1 | MT-4 | - | IIIB | >179 µM |
| C#Cc1ccc(Nc2nccc(Oc3c(C)cc(-c4cn(Cc5cccc([N+](=O)[O-])c5)nn4)cc3C)n2)cc1 | MT-4 | K103N | IIIB | 0.38 µM |
| N#Cc1cc(Cl)cc(Oc2c(Br)ccc(Cn3ccc(=O)[nH]c3=O)c2F)c1 | MT-4 | NNRTI-resistant (RT K103N/Y181C) | K103N/Y181C | 0.019 µM |
| COc1cc(O)c2c(=O)c(OC)c(-c3ccc(O)cc3)oc2c1 | MT-4 | - | IIIB | 2.5 µg/mL |
| Cc1cc(/C=C/c2ccccc2)cc(C)c1Oc1ccnc(Nc2ccc(C#N)cc2)n1 | MT-4 | L100I | IIIB | 0.322 µM |
| CC1CCCCN1CCCNCc1ccc(CC(=O)NCCCN2CCOCC2)cc1 | MT-4 | - | - | 6.72 µM |
| Nc1ccc(-c2nc3ccccc3c(=O)[nH]2)cc1 | MT-4 | - | - | >238.1 µM |
| COc1ccc2nc3cc(Cl)ccc3c(N3CCCC(O)C3)c2c1 | MT-4 | - | - | >6.2 µM |
| O=C(/C=C/c1ccc(O)cc1)c1ccc(O)cc1O | MT-4 | - | IIIB | >20 µg/mL |
| O=C1Cc2ccccc2C(=O)N1O | MT-4 | - | IIIB | >27.05 µM |
| O=C1Nc2ccc(Cl)cc2[C@@](C#CC2CC2)(C(F)(F)F)O1 | MT-4 | E138K | IIIB | 0.108 µM |
| Cc1cn(Cc2ccc(Br)c(Oc3cc(Cl)cc(C#N)c3)c2F)c(=O)[nH]c1=O | MT-4 | Wild type | - | 0.001 µM |
| O=c1[nH]c(-c2ccc(O)c(O)c2O)nc2ccccc12 | MT-4 | - | - | >9.2 µM |
| CC1CCCCN1CCCCNCc1ccc(CNCCCCN2CCCCC2C)cc1 | MT-4 | - | - | 0.76 µM |
| Cc1cc(C#Cc2cccc(N)c2)cc(C)c1Oc1ccnc(NC2CCN(Cc3ccc(C(N)=O)cc3)CC2)n1 | MT-4 | Y188L | IIIB | >0.198 µM |
| COc1ccccc1N1CCN(CCCCN2C(=O)CCC(c3ccccc3)C2=O)CC1 | MT-4 | - | - | >100 µM |
| Cc1ccccc1NC(=O)CSc1sc(N)nc1-c1ccc(Br)cc1Br | MT-4 | - | IIIB | >23.96 µM |
| c1cc(CN2CCCNCCNCCCNCC2)ccc1CN1CCCNCCNCCCNCC1 | MT-4 | - | NL4-3 | 0.001 µM |
| Cc1cc(C#Cc2cccc(N)c2)cc(C)c1Oc1ccnc(NC2CCN(Cc3cccc(C(N)=O)c3)CC2)n1 | MT-4 | F227L + RES056 | IIIB | ≥0.163 µM |
| c1cc2cc(NCCNC3=NCCCN3)ccc2[nH]1 | MT-4 | - | IIIB | 24.76 µM |
| Cc1cc(C#Cc2ccccc2N)cc(C)c1Oc1ccnc(Nc2ccc(C#N)cc2)n1 | MT-4 | K103N | IIIB | 0.537 µM |
| COc1c(CC=C(C)C)c(O)cc2oc(=O)c3c4ccc(O)cc4oc3c12 | MT-4 | - | IIIB | >20 µg/mL |
| Nc1ccccc1NC(=O)CSc1sc(Cl)nc1-c1ccc(Br)cc1Br | MT-4 | K103K | IIIB | >13.08 µM |
| N#Cc1cc(Cl)cc(Oc2c(Br)ccc(Cn3c(=O)[nH]c4ccccc43)c2F)c1 | MT-4 | Wild type | - | 0.005 µM |
| NC(=NCCNc1ccc2[nH]ccc2c1)N[N+](=O)[O-] | MT-4 | - | IIIB | >400 µM |
| COc1ccc2nc3cc(Cl)ccc3c(Nc3ccco3)c2c1 | MT-4 | - | - | >7 µM |
| Cc1cc(-c2ccc(C#N)cc2)cc(C)c1Oc1ccnc(S(=O)(=O)CC(=O)Nc2ccc(C#N)cc2)n1 | MT-4 | - | RES056 | 0.226 µM |
| Cc1cn([C@H]2C[C@H](N=[N+]=[N-])[C@@H](CO)O2)c(=O)[nH]c1=O | MT-4 | RES056A | IIIB | 0.01 µM |
| Cc1cccc(C)c1OCC(=O)N[C@@H](Cc1ccccc1)[C@@H](O)C[C@H](Cc1ccccc1)NC(=O)[C@H](C(C)C)N1CCCNC1=O | MT-2 | - | LAI | 0.027 µM |
| CC(C)Nc1cccnc1N1CCN(C(=O)c2cc3cc(NS(C)(=O)=O)ccc3[nH]2)CC1 | MT-4 | E138K | IIIB | 0.06 µM |
| Cc1cc(C#N)cc(C)c1Oc1nc(Nc2ccc(C#N)cc2)nc(N)c1Br | MT-4 | Y181C | IIIB | 0.012 µM |
| COc1ccc2nc3cc(Cl)ccc3c(N)c2c1 | MT-4 | - | - | >1.8 µM |
| O=C(CSc1sc(Cl)nc1-c1ccc(Br)cc1Br)Nc1cccnc1Cl | MT-4 | - | IIIB | 2.67 µM |
| N#Cc1cc(Cl)cc(Oc2c(Br)ccc(Cn3[nH]c(=O)[nH]c3=O)c2F)c1 | MT-4 | NNRTI-resistant (RT K103N/Y181C) | K103N/Y181C | 0.028 µM |
| Cc1cc(C#Cc2ccc(C(=O)O)cc2)cc(C)c1Oc1ccnc(Nc2ccc(C#N)cc2)n1 | MT-4 | E138K | IIIB | 0.244 µM |
| N#Cc1cc(Cl)cc(Oc2c(Br)ccc(Cc3ccc[nH]c3=O)c2F)c1 | MT-4 | Wild type | - | 0.025 µM |
| Nc1ncnc2c1ncn2CCOCP(=O)(O)O | PBMC | - | LAI | 4.3 µM |
| Nc1ccn([C@H]2CC[C@@H](CO)O2)c(=O)n1 | MT-4 | - | IIIB | 0.75 µM |
| C=C(C#N)c1cc(C)c(Oc2ccnc(Nc3ccc(CN4CCN(S(C)(=O)=O)CC4)cc3)n2)c(C)c1 | MT-4 | Y188L | IIIB | 1.62 µM |
| O=C1CCC(c2ccccc2)C(=O)N1CCCCN1CCN(c2ccccc2)CC1 | MT-4 | - | - | >74 µM |
| CCC(CO)Nc1c2ccc(Cl)cc2nc2ccc(OC)cc12 | MT-4 | - | - | >9.6 µM |
| Cc1cc(/C=C/C#N)cc(C)c1Oc1ccnc(S(=O)(=O)CC(=O)Nc2ccc(F)cc2)n1 | MT-4 | - | RES056 | 0.44 µM |
| Cc1cn([C@H]2C[C@H](N=[N+]=[N-])[C@@H](CO)O2)c(=O)[nH]c1=O | MT-4 | - | NL4-3 | 0.003 µM |
| O=C1CCC(c2ccccc2)C(=O)N1CCCCN1CCN(c2ccccn2)CC1 | MT-4 | - | - | >100 µM |
| CC1CCCCN1CCCNCc1ccc(CC(=O)NCCCN2CCCCC2)cc1 | MT-4 | - | - | 1.39 µM |
| Cc1cc(-c2ccc(C#N)cc2)cc(C)c1Oc1ccnc(S(=O)(=O)CC(=O)NC(C)c2ccc(Cl)cc2)n1 | MT-4 | - | IIIB | >3.82 µM |
| C#Cc1ccc(Nc2nccc(Oc3c(C)cc(-c4cn(Cc5ccc(C#N)cc5)nn4)cc3C)n2)cc1 | MT-4 | F227L and V106A | IIIB | >7.18 µM |
| CN=C(N)NCCNc1ccc2[nH]ccc2c1 | MT-4 | - | IIIB | >277 µM |
| COc1ccccc1N1CCN(CCCN2C(=O)CCC(c3ccccc3)C2=O)CC1 | MT-4 | - | - | >100 µM |
| CC1CCCCN1CCCNCc1ccc(CC(=O)NCCCN2CCCCC2C)cc1 | MT-4 | - | - | 1.012 µM |
| CC1(C)C=Cc2cc(-c3coc4cc(O)cc(O)c4c3=O)cc(O)c2O1 | MT-4 | - | IIIB | >100 µg/mL |
| Cc1ccnc2c1NC(=O)c1cccnc1N2C1CC1 | MT-4 | Y188L | IIIB | >15.02 µM |
| c1cc2cc(NCCNC3=NCCN3)ccc2[nH]1 | MT-4 | - | IIIB | >88.57 µM |
| N#Cc1cc(Cl)cc(Oc2c(Br)ccc(Cn3cn[nH]c3=O)c2F)c1 | MT-4 | Wild type | - | 0.014 µM |
| O=S1(=O)N=C(Nc2ccccc2)C=C(Cc2ccccc2)N1 | MT-4 | - | IIIB | >292 µM |
| CN1C(=O)NC(=O)C1Cc1ccc(Br)c(Oc2cc(Cl)cc(C#N)c2)c1F | MT-4 | Wild type | - | 0.004 µM |
| Cc1cc(C#Cc2cccnc2)cc(C)c1Oc1ccnc(Nc2ccc(C#N)cc2)n1 | MT-4 | L100I | IIIB | 0.076 µM |